Source: US20140348942A1, “Treatments for gastrointestinal disorders” (published 2014)

Biological target: Guanylate cyclase C (GC-C) on human T84 cells (human), P25092
Assay: cell-based or functional assay

## DDDCCELCCNPACTGC (modifications not checked) [Peptide 20]
  Ratio EC50 pH 8/EC50 pH 5: 90
